As a reminder, the inhibition is the change of the read-out against control, counted positive when it falls.

These results are taken from PubChem BioAssay AID485275 (NMMLSC, 2010).

SMILES strings stand for the structures. This is a selection; strong and weak results do not stand in their true shares. Some salts and complexes are drawn in separate pieces, as the source files them; their charges need not balance. Calls of active or inactive are those of the source.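 The calls were made as follows: active = plate passing quality check with inhibition over a set limit, or well fluorescence over plate mean plus 4 SD; inactive = the rest.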

A short description of this assay: antifungal drug efflux pump blockers, triplex strains – S. cerevisiae, Nile Red, multiplex, primary screen (AID 485275).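 Also: Nile Red retained in pooled yeast measured as flow cytometry median fluorescence; 0% = buffer negative control and 100% = Enniatin B positive control; higher means more Nile Red kept so more efflux inhibition.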 To be noted: S. cerevisiae Candida pump triplex, at 10 µM, active compounds read high.
In the case of `CP(=O)(Oc1ccccc1)N1CCOC1=O` (centres undefined), the inhibition is inactive: 0%. Consider `CCc1ccc(OP(C)(=O)Nc2cccnc2)cc1` (centres undefined), for which the inhibition is inactive: 0.21%. The result for `COc1ccccc1OP(C)(=O)Nc1c(C)n(C)n(-c2ccccc2)c1=O` (centres undefined) reads inactive: 0.01%; that for `O=C(OCCCN1CCCC1)C(O)(c1ccccc1)C1CCCCC1` (centres undefined), inactive: -0.01%; that for `CCN(CC)CC(O)COC(=O)C(O)(c1ccccc1)C1CCCCC1` (centres undefined), inactive: -0.3%. With `COc1ccc(OP(C)(=O)Nc2ccc(Br)cc2)cc1` (centres undefined), the inhibition was inactive: 0.25%.

As for `CN(C)C(=O)c1c([N+](=O)[O-])cc([N+](=O)[O-])cc1[N+](=O)[O-]`, the inhibition was inactive: -0.02%. For `CP(=O)(Nc1ccc(Cl)cc1)Oc1ccc(F)cc1` (centres undefined), the inhibition is inactive: -0.03%. For the compound `CC(C)(C)c1ccc(OP(C)(=O)O)cc1`, the inhibition was inactive: -0.24%. The result for `COc1ccccc1OP(C)(=O)Nc1ccccc1Br` (centres undefined) reads inactive: -0.03%; that for `CP(=O)(OC12CC3CC(CC(C3)C1)C2)OC12CC3CC(CC(C3)C1)C2`, inactive: 0.19%. In the case of `CCOC(=O)c1ccc(NP(C)(=O)Oc2ccc(Cl)cc2)cc1` (centres undefined) it was inactive: -0.12%; in that of `Nc1ccc2c(ccc3cccnc32)n1.O=[N+]([O-])c1cc([N+](=O)[O-])c(O)c([N+](=O)[O-])c1`, inactive: 0.04%.

As for `COc1ccc(OP(C)(=O)Nc2ccccc2Br)cc1` (centres undefined), the inhibition is inactive: 0.02%. In the case of `COc1ccccc1OP(C)(=O)Nc1ccc(C)c(C)c1` (centres undefined) it was inactive: 0.02%; in that of `Cc1cc(C)cc(OP(C)(=O)Nc2cccc(C(F)(F)F)c2)c1` (centres undefined), inactive: -0.05%; in that of `CP(=O)(OCCOc1ccccc1)OCCOc1ccccc1`, inactive: 0.08%. For `CP(=O)(Nc1ccc(Cl)cc1Cl)Oc1ccccc1` (centres undefined), the inhibition is inactive: 0%.

With `Cc1nc2ccc3ccccc3c2o1.O=[N+]([O-])c1cc([N+](=O)[O-])c(O)c([N+](=O)[O-])c1`, the inhibition is inactive: -0.06%. In the case of `CN(C)CCOC(=O)C(O)(c1ccccc1)C1CCCC1` (centres undefined) it was inactive: -0.06%; in that of `COc1ccc(OP(C)(=O)Nc2ccccn2)cc1` (centres undefined), inactive: 0.01%. The result for `COc1ccccc1OP(C)(=O)Nc1ccc(Br)cc1` (centres undefined) reads inactive: 0.24%; that for `CCc1ccc(OP(C)(=O)O)cc1`, inactive: -0.06%; that for `CP(=O)(Nc1ccccn1)Oc1ccccc1` (centres undefined), inactive: -0.04%. In the case of `COc1ccccc1OP(C)(=O)Nc1ccc(C)cc1C` (centres undefined) it was inactive: -0.12%; in that of `O=[N+]([O-])c1cc([N+](=O)[O-])c(Nc2ccccn2)c([N+](=O)[O-])c1`, inactive: -0.05%.

In the case of `Cc1c(NP(C)(=O)Oc2ccc(C(C)C)cc2)c(=O)n(-c2ccccc2)n1C` (centres undefined), the inhibition was inactive: 0.01%. In the case of `CC(C)c1ccc(OP(C)(=O)Nc2ccc(SC(F)(F)F)cc2)cc1` (centres undefined) it was inactive: 0.53%. In the case of `CP(=O)(Nc1ccccc1F)Oc1ccccc1` (centres undefined) it was inactive: 0%. On to `COc1ccc2c(c1O)-c1c(O)c(OC)cc3c1[C@H](C2)[N+](C)(C)CC3.O=[N+]([O-])c1cc([N+](=O)[O-])c([O-])c([N+](=O)[O-])c1[O-]`, for which the inhibition is inactive: 0%. The result for `O=C(OCCN1CCN(CCOCc2ccccc2)CC1)C(O)(c1ccccc1)c1ccccc1` reads inactive: -0.06%. The result for `O=C(OC1CN2CCC1CC2)c1ccc([N+](=O)[O-])cc1` (centres undefined) reads inactive: 0.12%. Consider `COc1ccc(OP(C)(=O)Nc2ccc(SC(F)(F)F)cc2)cc1` (centres undefined), for which the inhibition was inactive: 0.04%. The result for `CCOC(=O)c1ccc(NP(C)(=O)Oc2ccc(F)cc2)cc1` (centres undefined) reads inactive: -1.05%. In the case of `CCCCCOc1ccc(NP(C)(=O)Oc2ccc(Cl)cc2Cl)cc1` (centres undefined) it was inactive: 0.02%. In the case of `O=[N+]([O-])c1cc([N+](=O)[O-])c(OC2CCCCC2O)c([N+](=O)[O-])c1` (centres undefined) it was inactive: -0.04%; in that of `CP(=O)(Nc1ccccc1)Oc1ccc(F)cc1` (centres undefined), inactive: 0.05%; in that of `CCN(CC)CCCOC(=O)C(O)(c1ccccc1)C1CCCCC1` (centres undefined), inactive: 0.17%. Consider `COc1ccc(NP(C)(=O)Oc2ccccc2OC)cc1` (centres undefined), for which the inhibition is inactive: -0.03%. With `CN(C)CCOC(=O)C(O)(c1ccccc1)C1CCCCC1` (centres undefined), the inhibition was inactive: 0.01%.

Regarding `COc1ccc(OP(C)(=O)Nc2cccc(Br)c2)cc1` (centres undefined), the inhibition is inactive: -0.09%. The result for `O=[N+]([O-])c1cc([N+](=O)[O-])c(NCC2CCS(=O)(=O)C2)c([N+](=O)[O-])c1` (centres undefined) reads inactive: 0.13%; that for `O=[N+]([O-])c1ccc(OP2(=O)COCCO2)cc1` (centres undefined), inactive: 0.01%. As to `CCOP(C)(=S)SCC(=O)NC(C)(CC)C(=O)O` (centres undefined), the inhibition was inactive: -0.08%. `CP(=O)(Nc1ccc(SC(F)(F)F)cc1)Oc1ccc(F)cc1` (centres undefined): the inhibition is inactive: -0.04%. Regarding `Cc1ccccc1NP(C)(=O)Nc1ccccc1C`, the inhibition was inactive: 0.84%. For `CP(=O)(Nc1ccc2c(c1)OCCO2)Oc1ccccc1` (centres undefined), the inhibition is inactive: -0.01%. In the case of `O=[N+]([O-])c1cc([N+](=O)[O-])c(-n2nnc3ccccc32)c([N+](=O)[O-])c1` it was inactive: 0.03%; in that of `Cc1nc2ccc3ccccc3c2s1.O=[N+]([O-])c1cc([N+](=O)[O-])c(O)c([N+](=O)[O-])c1`, inactive: 0.02%; in that of `O=[N+]([O-])c1cc([N+](=O)[O-])c(-c2cnn(-c3ccccc3)c2)c([N+](=O)[O-])c1`, inactive: -0.08%. The result for `O=[N+]([O-])c1cc([N+](=O)[O-])c(Nc2nnnn2CCO)c([N+](=O)[O-])c1` reads inactive: -0.06%; that for `CC1=C2N=C(C=C3N=C(C(C)=C4[N-][C@@](C)([C@@H]5N=C1[C@](C)(CCC(=O)NC[C@@H](C)OP(=O)([O-])O[C@H]1[C@@H](O)[C@@H](n6cnc7cc(C)c(C)cc76)O[C@@H]1CO)[C@H]5CC(N)=O)[C@@](C)(CC(N)=O)[C@@H]4CCC(N)=O)[C@@](C)(CC(N)=O)[C@@H]3CCC(N)=O)C(C)(C)[C@@H]2CCC(N)=O.[C-]#N.[Co+3]`, inactive: -0.06%.

Regarding `CCOC(=O)C(CC)C1=NC(C)(C)Cc2ccccc21.O=[N+]([O-])c1cc([N+](=O)[O-])c(O)c([N+](=O)[O-])c1` (centres undefined), the inhibition is inactive: -0.17%.

As for `CP(=O)(Nc1ccc(SC(F)(F)F)cc1)Oc1ccccc1` (centres undefined), the inhibition was inactive: 0.23%. With `CCCOc1ccc(NP(C)(=O)Oc2ccc(Cl)cc2)cc1` (centres undefined), the inhibition is inactive: 0.1%. For the compound `COc1ccccc1OP(C)(=O)Nc1c(C)cccc1C` (centres undefined), the inhibition is inactive: -0.01%.

Regarding `CN1CCCCC1COC(=O)C1(O)c2ccccc2CCc2ccccc21` (centres undefined), the inhibition is inactive: 0.34%. The result for `O=C(O)c1cccc(Nc2c([N+](=O)[O-])cc([N+](=O)[O-])cc2[N+](=O)[O-])c1` reads inactive: 0.07%; that for `CC1=NCCc2c1[nH]c1ccccc21.O=[N+]([O-])c1cc([N+](=O)[O-])c(O)c([N+](=O)[O-])c1`, inactive: -0.17%; that for `Cc1cc(C)cc(OP(C)(=O)Nc2ccc(C)cc2C)c1` (centres undefined), inactive: 0.02%.

As for `CCOC(=O)c1ccc(NP(C)(=O)Oc2cc(C)cc(C)c2)cc1` (centres undefined), the inhibition was inactive: 0.09%.

With `COc1ccccc1OP(C)(=O)Nc1cccc(Br)c1` (centres undefined), the inhibition was inactive: -0.01%. The result for `CP(=O)(Nc1cccc(Br)c1)Oc1ccccc1` (centres undefined) reads inactive: 0.01%; that for `Cc1cc(C)cc(OP(C)(=O)Nc2ccccn2)c1` (centres undefined), inactive: -0.01%. The result for `Cc1ccc(C)c(NP(C)(=O)Oc2ccccc2)c1` (centres undefined) reads inactive: -0.07%; that for `CCN(CC)CCCOC(=O)C(O)(c1ccccc1)c1ccccc1`, inactive: -0.15%; that for `CC(C)(C)c1ccc(OP(C)(=O)Nc2ccc(SC(F)(F)F)cc2)cc1` (centres undefined), inactive: -0.25%.

`Cc1cccc(C)c1OP(C)(N)=O` (centres undefined): the inhibition is inactive: 0.02%. The result for `O=[N+]([O-])c1ccc2c(c1)C=Nc1ccccc1O2` reads inactive: -0.02%; that for `O=[N+]([O-])c1cc([N+](=O)[O-])c(Nc2cccnc2)c([N+](=O)[O-])c1`, inactive: 0.05%; that for `COc1ccccc1OP(C)(=O)Nc1cc(Cl)ccc1C` (centres undefined), inactive: 0.23%. Regarding `COc1ccc(OP(C)(=O)Nc2cccc(F)c2)cc1` (centres undefined), the inhibition is inactive: 0%. Take `Cc1cc(C)cc(OP(C)(N)=O)c1` (centres undefined): the inhibition is inactive: 0.12%. In the case of `CCOC(=O)c1ccc(NP(C)(=O)Oc2ccccc2)cc1` (centres undefined) it was inactive: -0.14%; in that of `COc1ccccc1OP(C)(=O)Nc1ccc(C)cc1` (centres undefined), inactive: 0.04%; in that of `Cc1ccc(NP(C)(=O)Oc2ccccc2)c(C)c1` (centres undefined), inactive: -0.02%. `COc1ccccc1OP(C)(=O)Nc1ccccc1` (centres undefined): the inhibition was inactive: 0.09%. The result for `CP(=O)(Nc1ccccc1Br)Oc1ccccc1` (centres undefined) reads inactive: -0.08%; that for `CP(=S)(Nn1cnnc1)Oc1ccccc1` (centres undefined), inactive: 0%. The result for `CCc1ccc(OP(C)(=O)N2CCN(c3ccc([N+](=O)[O-])cc3)CC2)cc1` (centres undefined) reads inactive: 0.05%; that for `CP(=O)(NC(=O)Nc1ccccc1)Oc1ccccc1` (centres undefined), inactive: 0.01%; that for `Cc1cc(C)cc(OP(C)(=O)Nc2ccc(SC(F)(F)F)cc2)c1` (centres undefined), inactive: -0.19%. The result for `Cc1cccc(C)c1OP(C)(=O)Nc1ccc(SC(F)(F)F)cc1` (centres undefined) reads inactive: 0.1%; that for `CP(=O)(Nc1ccc(SC(F)(F)F)cc1)Oc1ccc(Cl)cc1` (centres undefined), inactive: 0.19%. For the compound `CP(=O)(Oc1ccccc1)OC(c1ccccc1)C(F)(F)F` (centres undefined), the inhibition is inactive: -0.03%.

Take `CP(=O)(Nc1ccccn1)Oc1ccc(Cl)cc1` (centres undefined): the inhibition was inactive: 1.79%.

Consider `CCOP(C)(=S)SCC(=O)NC(C)C(=O)O` (centres undefined), for which the inhibition is inactive: -0.15%.

`CCOC(=O)c1ccc(NP(C)(=O)Oc2ccc(OC)cc2)cc1` (centres undefined): the inhibition was inactive: 0.01%.

Turning to `O=[N+]([O-])c1cc([N+](=O)[O-])c(O)c([N+](=O)[O-])c1.c1ccc(Oc2ccncc2)cc1`, the inhibition is inactive: -0.05%.
